Assay results published in the supplement of paper PMC9931576.
Human monoclonal antibodies against the spike receptor-binding domain (heavy:light variable regions). IC50 against pseudoviruses bearing the spike of naturally observed variants; lower = stronger; >10 µg/ml means not reached at the top dose. No active / inactive call. The stated detection limit is 0.0005 µg/ml; values near or below 0.001 µg/ml lie at the floor of the assay.

B1: BD56-1668 (protein)
chain 1: QVQLVQSGAEVKKPGSSVKVSCKASGGTFSSYTIAWVRQAPGQGLEWMGRIIPFLAVADYAAQLQGRVSITADKSTSTAYMELSSLRSEDTAVYFCALARGYSGSGSSYYFDSWGLGTLVTVSS
chain 2: QSVLAQPPSVSGAPGQRVTISCTGSSSNIGAGYDVHWYQQLPSTAPRLLIYANNNRPSGVPDRFSGSKSGTSASLAITGLQAGDEADYYCQSYDSSLSGSVFGGGTKLTVL
B2: BD56-1680 (protein)
chain 1: QVQLVQSGAEVKKPGSSVKVSCKASGGTFSSDALSWVRQAPGQGLEWMGTIIPIFGTTNYAQKFRARITITTDDSTSTAYMELSSLKSEDTAMYYCAKDIVVGPLYGMDVWGQGTTVTVSS
chain 2: DIQMTQSPSSLSASVGDRVTITCRTSQSIGTFLNWYHQKPGKAPKLLIYGASSLESGVPSRFSGTGSGTDFTLTISSLQPEDFATYYCQQSYTARTFGQGTRVEVK
B3: BD56-1682 (protein)
chain 1: QVQLVESGGGVVQPGKSLRLSCAASGFTFSGYAMHWVRQAPGKGLDWVAVISSDGSFKHSADSVKGRFTISRDNSQNMLYLQMNTLRPGDTALYYCATEGSDSSWYVYFDNWGQGALVTVSS
chain 2: DIQMTQSPSSLSASVGDRVTITCRASQTISSYLNWYQQKPGKAPKLLIFAASNLQTGVPSRFSGSGSGTDFTLTISSLQPEDFATYYCQQSYTTLSYTFGQGTRLEIK
B4: BD56-1688 (protein)
chain 1: QVQLVQSGAELKKPGSSVKVSCQASGGTFSNYGFSWVRQAPGQGLEWMGRIIPILPITNYAQKLQGRVTITADESTTTVYMELSSLRSEDSAIYYCARHLHDYGDDLLYKYVMDVWGQGTTVTVSS
chain 2: DIQMTQSPSTLSASVGDRVTITCRASQTISNWLAWYQQKPGKAPKLLISKASNLQSGVPSRFSGSGSGTEFTLTISGLQPDDFATYYCQQYNTYSPFGQGTKVEIK
B5: BD56-1691 (protein)
chain 1: EVHLVESGGGLVQPDKSLRLSCAASGFPFDDYAMHWVRQAPGKGLEWVSGISWNGGVIGYADSVKGRCVISRDNAKNSLYLHMSSLRAEDTALYYCVKDMSGGDYQNYFDHWGQGTLVTVSS
chain 2: SYVLTQAPSVSVAPGRTARITCGGNYIGGKSVHWYQQRPGQAPVVVVYDNSDRPSGIPERFSGSRSGNTATLTISRVDAGDEADYYCQVWDSSRDLYVFGTGTKLTVL
B6: BD56-1695 (protein)
chain 1: QVQLVQSGAAVKKPGSSVKVSCKASGGSFSSYTISWVRQAPGQGLEWMGKIIPFLGVANYAQRFQGRVTITADKSTSTVYMDLSSLRSEDTAVYYCARDRNGYFGAFDIWGQGTMVTVSA
chain 2: QSVLTQPPSVSGAPGQRVTISCTGNNSNIGAGYDVHWYQQFPGTAPKVVIYGNNNRPLGVPDRFSGSKSDTSASLAITGLQAEDEADYYCQSYDSSLSDVIFAGGTKLTVL

target: SARS-CoV-2 Omicron BA.1 spike pseudovirus; assay: pseudovirus neutralization IC50; higher = weaker neutralization
Method: (§1)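 Single-round VSV luciferase pseudovirus mixed with antibody dilutions for 1 h and put on Huh-7 cells for about a day; IC50 from the dose curve.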

B1 and B2 are within 1.5-fold of each other in “pseudovirus neutralization IC50” value: 0.0212 µg/mL for the first, 0.0153 µg/mL for the second.

Compared with B3, B4 is lower in “pseudovirus neutralization IC50” value: over 10 µg/mL for the first, 0.00778 µg/mL for the second.

First: B5
Second: B6
The “pseudovirus neutralization IC50” value of the first is 11-fold lower: 0.00672 µg/mL for the first, 0.0771 µg/mL for the second.

target: SARS-CoV-2 Omicron BA.2 spike pseudovirus; assay: as above
Method: as §1

First: B1
Second: B2
The “pseudovirus neutralization IC50” value of the first is 2.9-fold higher: 0.0499 µg/mL for the first, 0.0173 µg/mL for the second.

First: B3
Second: B4
The “pseudovirus neutralization IC50” value of the first is higher: over 10 µg/mL for the first, 0.00391 µg/mL for the second.

Compared with B5, B6 is 5.8-fold higher in “pseudovirus neutralization IC50” value: 0.00762 µg/mL for the first, 0.0443 µg/mL for the second.

target: SARS-CoV-2 Omicron BA.2.75 spike pseudovirus; assay: as above
Method: as §1

B1 and B2 are within 1.5-fold of each other in “pseudovirus neutralization IC50” value: 0.0473 µg/mL for the first, 0.0409 µg/mL for the second.

Compared with B3, B4 is lower in “pseudovirus neutralization IC50” value: over 10 µg/mL for the first, 0.789 µg/mL for the second.

Going from B5 to B6, the “pseudovirus neutralization IC50” value rises from 0.0133 µg/mL to 0.102 µg/mL (7.7-fold).

target: SARS-CoV-2 Omicron BA.5 spike pseudovirus; assay: as above
Method: as §1

Going from B1 to B2, the “pseudovirus neutralization IC50” value falls from 4.44 µg/mL to 1.26 µg/mL (3.5-fold).

Going from B3 to B4, the “pseudovirus neutralization IC50” value falls from over 10 µg/mL to 0.229 µg/mL.

First: B5
Second: B6
The “pseudovirus neutralization IC50” value of the first is 7-fold lower: 0.869 µg/mL for the first, 6.07 µg/mL for the second.

target: SARS-CoV-2 Omicron BQ.1.1 spike pseudovirus; assay: as above
Method: as §1

B1 and B2 cannot be ordered by “pseudovirus neutralization IC50” value: over 10 µg/mL for the first, over 10 µg/mL for the second.

Going from B3 to B4, the “pseudovirus neutralization IC50” value falls from over 10 µg/mL to 1.51 µg/mL.

B5 and B6 cannot be ordered by “pseudovirus neutralization IC50” value: over 10 µg/mL for the first, over 10 µg/mL for the second.

target: SARS-CoV-2 Omicron XBB spike pseudovirus; assay: as above
Method: as §1

First: B1
Second: B2
The “pseudovirus neutralization IC50” value of the first is higher: over 10 µg/mL for the first, 2.92 µg/mL for the second.

Going from B3 to B4, the “pseudovirus neutralization IC50” value falls from over 10 µg/mL to 2.04 µg/mL.

B5 and B6 cannot be ordered by “pseudovirus neutralization IC50” value: over 10 µg/mL for the first, over 10 µg/mL for the second.

target: SARS-CoV-2 early D614G spike pseudovirus; assay: as above
Method: as §1

Compared with B1, B2 is 17-fold lower in “pseudovirus neutralization IC50” value: 0.805 µg/mL for the first, 0.0463 µg/mL for the second.

First: B3
Second: B4
The “pseudovirus neutralization IC50” value of the first is higher: over 10 µg/mL for the first, 0.247 µg/mL for the second.

Compared with B5, B6 is 5.5-fold higher in “pseudovirus neutralization IC50” value: 0.0132 µg/mL for the first, 0.0721 µg/mL for the second.
